Pooled drug test results. Numbers come from NIAID ChemDB, via PubChem.

Shared fields: growth or infection tests; agent: Mycobacterium tuberculosis

Conditions beyond the fields shown may differ between rows. Percent inhibition refers to the dose given; in toxicity tests it is the harm to the cells. ECn is the concentration giving n% inhibition of infection, replication or growth. An empty or dashed field is not shown. a–b is a range or a potency band. "inactive" is the filed call at that dose; no cut-off is given. MIC bound comes from a single tested concentration. A number after MIC or MFC names an inhibition level or a share of isolates.

smiles | conditions | strain or isolate | read by | mutations | endpoint | tested at | value
CO[C@H]1/C=C/O[C@@]2(C)Oc3c(C)c(O)c4c(c3C2=O)C(=O)C(N2CCC(=NNc3ccc([N+](=O)[O-])cc3[N+](=O)[O-])CC2)=C(NC(=O)/C(C)=C\C=C\[C@H](C)[C@H](O)[C@@H](C)[C@@H](O)[C@@H](C)[C@H](OC(C)=O)[C@@H]1C)C4=O |  | H37Rv |  |  | MIC |  | 0.0025 µg/mL
CCCCCCCNC(=O)c1cc2c(Cl)cc(Cl)cc2[nH]1 |  | H37Rv | resazurin / fluorescence |  | MIC |  | 391 µM
N#Cc1cccc2c(=O)c3ccccc3oc12 |  | H37Rv |  |  | inhibition | 4 µg/mL | inactive
CO[C@H]1/C=C/O[C@@]2(C)Oc3c(C)c(O)c4c(O)c(c(/C=N/N5CCN(C)CC5)c(O)c4c3C2=O)NC(=O)/C(C)=C\C=C\[C@H](C)[C@H](O)[C@@H](C)[C@@H](O)[C@@H](C)[C@H](OC(C)=O)[C@@H]1C | pH 6.0 |  | resazurin | Pyrazinamide-resistant | MIC90 |  | <0.016 µM
CCN(CC)Cc1cc(N(c2cc(C)nc3cc(Cl)ccc23)S(=O)(=O)c2cc(C)cc(C)c2)ccc1O |  | H37Rv | agar |  | MIC |  | 6.25 µg/mL
O=C(O)CC1S/C(=N\N=C\c2ccc(Cl)c(Cl)c2)N(c2ccccc2)C1=O |  |  |  |  | MIC |  | 90 µM
CC(=N)c1cc(CNCc2cccc(C(F)(F)F)c2)c(=O)[nH]c1Nc1ccccn1 |  | H37Rv | broth dilution |  | MIC |  | >100 µM
O=C(O)c1cccc2oc3ccccc3c(=O)c12 |  | H37Rv |  |  | inhibition | 16 µg/mL | inactive
COC(=O)/C1=C/c2c([nH]c3ccc(Br)cc23)/C(C(=O)OC)=C\c2c1[nH]c1ccc(Br)cc21 |  | H37Rv | resazurin / absorbance |  | EC50 |  | 1.98 µM
NC(=S)C(=S)N1CCCC1 |  |  |  |  | MIC |  | 250 µM
Cc1ccc(C(F)(F)F)cc1CNCc1cc(C(=N)C(C)C)c(Nc2ccccc2)[nH]c1=O |  | H37Rv | broth dilution |  | MBC |  | <0.5 µM
Cc1ccc(/C=N\C2=NN3C(=CSC3c3ccc(C)cc3)S2)cc1 |  | H37Rv | resazurin |  | MIC |  | 3.125 µg/mL
O=C(Oc1cc(Cl)ccc1C(=O)Nc1ccc(C(F)(F)F)cc1)c1cnccn1 | 21 d | multidrug resistant Praha 1 |  |  | MIC |  | 0.25 µM
O=C(OCCOC(=O)c1cnccn1)c1cnccn1 | pH 6.6 |  | resazurin | Pyrazinamide-resistant | MIC90 |  | >365 µM
COc1ccccc1/C=N\C1=NN2C(=CSC2c2ccc(N(C)C)cc2)S1 |  | H37Rv | resazurin |  | MIC |  | 6.25 µg/mL
O=C(Nc1ccc(Cl)cc1)N1CCCC[C@H]1[C@@H](O)c1cc(C(F)(F)F)nc2c(C(F)(F)F)cccc12 |  |  |  |  | MIC |  | 21 µM
CC[C@@H](CO)NCCN[C@@H](CC)CO |  | Erdman |  |  | MIC |  | 1 µg/mL
NC(=O)c1cnccn1 |  | H37Rv | resazurin |  | MIC90 |  | >100 µM
O=C(Oc1ccc(Cl)cc1C(=O)Nc1ccc(Cl)c(Cl)c1)c1cnccn1 | 14 d | multidrug resistant 9449/2006 |  |  | MIC |  | 0.5 µM
C[C@H]1NCc2cc(-c3ccc4c(=O)c(C(=O)O)cn(C5CC5)c4c3OC(F)F)ccc21 |  | 67 clinical isolates |  |  | MIC50 |  | 2 µg/mL
Cc1ccc(C2SC=C3SC(N4C(=O)C(Cl)C4c4ccccc4)=NN32)cc1 |  | H37Rv | resazurin |  | MIC |  | 3.125 µg/mL
O=C(O)c1cc([N+](=O)[O-])c2oc3c(C(=O)O)cc([N+](=O)[O-])cc3c(=O)c2c1 |  | H37Rv |  |  | inhibition | 32 µg/mL | inactive
O=C(Oc1ccc(Cl)cc1C(=O)Nc1ccc(F)cc1)c1cnccn1 | 14 d | H37Rv 331/88 |  |  | MIC |  | 4 µM
CCCCN(C)/C=N/N=C/c1c2c(O)c3c(O)c(C)c4c(c3c1O)C(=O)[C@@](C)(O/C=C/[C@H](OC)[C@@H](C)[C@@H](OC(C)=O)[C@H](C)[C@H](O)[C@H](C)[C@@H](O)[C@@H](C)/C=C/C=C(/C)C(=O)N2)O4 |  | H37Rv |  |  | MIC |  | 0.04 µg/mL
O=C(O)c1cc([N+](=O)[O-])cc2c(=O)c3cc([N+](=O)[O-])ccc3oc12 |  | H37Rv |  |  | inhibition | 32 µg/mL | inactive
C[C@@H]1C(NC(=O)c2cc3c(Cl)cc(Cl)cc3[nH]2)C[C@H]2C[C@@H]1C2(C)C |  | V4207 | resazurin / fluorescence |  | MIC |  | 0.0156 µM
CCn1cc(C(=O)O)c(=O)c2cc(F)c(N3CCNC(C)C3)c(F)c21 |  | 5 strains (wild type) |  |  | MIC |  | 0.5–2 µg/mL
NC(=O)c1cnccn1 |  | Erdman |  |  | MIC |  | 32 µg/mL
CC(=O)Nc1nc(NC(C)=O)c(N=O)c(NC(C)=O)n1 |  | H37Rv | BACTEC |  | MIC bound |  | >12.5 µg/mL
COc1c(N2CC3CCCNC3C2)c(F)cc2c(=O)c(C(=O)O)cn(C3CC3)c12 |  | CSU87 | broth dilution / visual reading |  | MIC |  | 0.06 µg/mL
COc1ccccc1C1C(Cl)C(=O)N1C1=NN2C(=CSC2c2ccc(N(C)C)cc2)S1 |  | H37Rv | resazurin |  | MIC |  | 3.125 µg/mL
NNC(=O)c1ccncc1 |  | H37Rv |  |  | MIC |  | 0.46 µM
NC(=O)c1cccc2c(=O)c3ccccc3oc12 |  | H37Rv |  |  | inhibition | 8 µg/mL | inactive
CO[C@H]1/C=C/O[C@@]2(C)Oc3c(C)c(O)c4c(O)c(c(/C=N/N=C/N(C)Cc5ccccc5)c(O)c4c3C2=O)NC(=O)/C(C)=C\C=C\[C@H](C)[C@H](O)[C@@H](C)[C@@H](O)[C@@H](C)[C@H](OC(C)=O)[C@@H]1C |  | H37Rv |  |  | MIC |  | 0.04 µg/mL
CO[C@H]1/C=C/O[C@@]2(C)Oc3c(C)c(O)c4c(c3C2=O)C(=O)C(N2CCC(=NNC(N)=S)CC2)=C(NC(=O)/C(C)=C\C=C\[C@H](C)[C@H](O)[C@@H](C)[C@@H](O)[C@@H](C)[C@H](OC(C)=O)[C@@H]1C)C4=O |  | H37Rv |  |  | MIC |  | 0.0025 µg/mL
CCC(C)N(/C=N/N=C/c1c2c(O)c3c(O)c(C)c4c(c3c1O)C(=O)[C@@](C)(O/C=C/[C@H](OC)[C@@H](C)[C@@H](OC(C)=O)[C@H](C)[C@H](O)[C@H](C)[C@@H](O)[C@@H](C)/C=C/C=C(/C)C(=O)N2)O4)C(C)CC |  | H37Rv |  |  | MIC |  | 0.04 µg/mL
Brc1cncnc1-c1cccs1 |  | H37Rv | broth dilution |  | MIC |  | 0.7 µg/mL
CCN(CC)Cc1cc(N(c2cc(C)nc3cc(Cl)ccc23)S(=O)(=O)c2ccc(Cl)cc2)ccc1O |  | H37Rv | agar |  | MIC |  | 6.25 µg/mL
O=C(Oc1ccc(Cl)cc1C(=O)Nc1ccc(C(F)(F)F)cc1)c1cnccn1 | 21 d | multidrug resistant 9449/2006 |  |  | MIC |  | 0.25 µM
Nc1cccc(-c2cc(C(F)(F)F)nc3c(C(F)(F)F)cccc23)c1 |  |  |  |  | MIC |  | 60 µM
CC(C)CCOc1ccc(NC(=S)NC2OC(CO)[C@H](O)[C@@H]2O)cc1 |  | H37Rv | resazurin |  | MIC |  | 50 µg/mL
O=C1C(Cl)C(c2ccccc2)N1C1=NN2C(=CSC2c2ccccc2)S1 |  | H37Rv | resazurin |  | MIC |  | 6.25 µg/mL
CCC1CCC2CN(/N=C/c3c4c(O)c5c(O)c(C)c6c(c5c3O)C(=O)[C@@](C)(O/C=C/[C@H](OC)[C@@H](C)[C@@H](OC(C)=O)[C@H](C)[C@H](O)[C@H](C)[C@@H](O)[C@@H](C)/C=C/C=C(/C)C(=O)N4)O6)CCN2C1 |  | Rifampicin-resistant |  |  | MIC |  | >3 µg/mL
CCN(CC)Cc1cc(N(c2cc(C)nc3cc(Cl)ccc23)S(=O)(=O)c2ccc(Cl)cc2Cl)ccc1O |  | H37Rv | agar |  | MIC |  | 6.25 µg/mL
NC(=S)C(=S)C(=O)C(=O)N1CCOCC1 |  |  |  |  | MIC |  | >1000 µM
NS(=O)(=O)c1ccc(CN2CCCC[C@H]2[C@@H](O)c2cc(C(F)(F)F)nc3c(C(F)(F)F)cccc23)cc1 |  |  |  |  | MIC |  | 22 µM
CN[C@@H]1[C@H](O[C@H]2[C@H](O[C@H]3[C@H](O)[C@@H](O)[C@H](NC(N)=O)[C@@H](O)[C@@H]3NC(N)=O)O[C@@H](C)[C@]2(O)CO)O[C@@H](CO)[C@H](O)[C@H]1O |  | 666 |  |  | MIC |  | 25 µg/mL
FC(F)(F)c1cc(N2CCNCC2)c2cccc(C(F)(F)F)c2n1 |  |  |  |  | MIC |  | 59 µM
CO[C@H]1/C=C/O[C@@]2(C)Oc3c(C)c(O)c4c(O)c(c5c(c4c3C2=O)NC2(CCN(CC(C)C)CC2)N=5)=NC(=O)/C(C)=C\C=C\[C@H](C)[C@H](O)[C@@H](C)[C@@H](O)[C@@H](C)[C@H](OC(C)=O)[C@@H]1C |  | Rifampicin-resistant strains |  |  | MIC |  | 0.25–0.5 µg/mL
CN(C)CCNc1cc(C(F)(F)F)nc2c(C(F)(F)F)cccc12 |  |  |  |  | MIC |  | 94 µM
COc1cc(O)c2c(O)c3c(=O)cc(C)oc3cc2c1 |  | H37Rv |  |  | MIC |  | 43 µM
Cc1ccc(C2SC=C3SC(N4C(=O)C(Cl)C4c4ccc(C)cc4)=NN32)cc1 |  | H37Rv | resazurin |  | MIC |  | 0.8 µg/mL
C[C@H]1CCC2C(C)(C)CCC[C@]23Oc2ccc(O)c(Cl)c2C[C@]13C |  | H37Rv |  |  | EC50 |  | >6.25 µg/mL
CN(C)C(=S)C(N)=S |  |  |  |  | MIC |  | 250 µM
Cc1ccc(C2SC=C3SC(/N=C\c4ccccc4C)=NN32)cc1 |  | H37Rv | resazurin |  | MIC |  | 6.25 µg/mL
COC(=O)c1ccc2oc3ccc([N+](=O)[O-])cc3c(=O)c2c1 |  | H37Rv |  |  | inhibition | 4 µg/mL | inactive
CO[C@H]1/C=C/O[C@@]2(C)Oc3c(C)c(O)c4c(c3C2=O)C(=O)C(N2CCC(=NNS(=O)(=O)c3ccc(C)cc3)CC2)=C(NC(=O)/C(C)=C\C=C\[C@H](C)[C@H](O)[C@@H](C)[C@@H](O)[C@@H](C)[C@H](OC(C)=O)[C@@H]1C)C4=O |  | H37Rv |  |  | MIC |  | 0.0025 µg/mL
NNC(=O)c1cccs1 |  | H37Rv | visual reading | pMV361::katG | MIC99.9 |  | ≤5 µg/mL
CN1CCC(CN2c3ccccc3Sc3ccccc32)C1 |  | H37RA 16 |  |  | MIC |  | 5 µg/mL
C[C@H]1COc2c(N3CCN(C)CC3)c(F)cc3c(=O)c(C(=O)O)cn1c23 |  | Erdman |  |  | MIC |  | 2 µg/mL

The last 9 rows once more:

smiles | conditions | strain or isolate | read by | mutations | endpoint | tested at | value
Cc1ccc(C2SC=C3SC(N4C(=O)C(Cl)C4c4ccc(C)cc4)=NN32)cc1 |  | H37Rv | resazurin |  | MIC |  | 0.8 µg/mL
C[C@H]1CCC2C(C)(C)CCC[C@]23Oc2ccc(O)c(Cl)c2C[C@]13C |  | H37Rv |  |  | EC50 |  | >6.25 µg/mL
CN(C)C(=S)C(N)=S |  |  |  |  | MIC |  | 250 µM
Cc1ccc(C2SC=C3SC(/N=C\c4ccccc4C)=NN32)cc1 |  | H37Rv | resazurin |  | MIC |  | 6.25 µg/mL
COC(=O)c1ccc2oc3ccc([N+](=O)[O-])cc3c(=O)c2c1 |  | H37Rv |  |  | inhibition | 4 µg/mL | inactive
CO[C@H]1/C=C/O[C@@]2(C)Oc3c(C)c(O)c4c(c3C2=O)C(=O)C(N2CCC(=NNS(=O)(=O)c3ccc(C)cc3)CC2)=C(NC(=O)/C(C)=C\C=C\[C@H](C)[C@H](O)[C@@H](C)[C@@H](O)[C@@H](C)[C@H](OC(C)=O)[C@@H]1C)C4=O |  | H37Rv |  |  | MIC |  | 0.0025 µg/mL
NNC(=O)c1cccs1 |  | H37Rv | visual reading | pMV361::katG | MIC99.9 |  | ≤5 µg/mL
CN1CCC(CN2c3ccccc3Sc3ccccc32)C1 |  | H37RA 16 |  |  | MIC |  | 5 µg/mL
C[C@H]1COc2c(N3CCN(C)CC3)c(F)cc3c(=O)c(C(=O)O)cn1c23 |  | Erdman |  |  | MIC |  | 2 µg/mL